From ChEMBL document CHEMBL1125007 (J Med Chem, 1990)

Columns and labels:
P388 [1] = test: Optimal dose (i.p.) given after inoculation with wild type 10 E 6 P388/W leukemia cell lines, measured on day 1
P388 [2] = test: Increase in life span of the drug treated animals against P388 leukemia when treated at a optimal dose of 65 mg/kg

Row | Structure (SMILES) | OD (P388 [1]) [mg/kg] | ILS (P388 [2]) [%]
1 | CSc1ccc(N(CCCl)CCCl)cc1 | 65 | –
2 | Cc1ccc(N(CCCl)CCCl)cc1 | 65 | 22
3 | COc1ccc(N(CCCl)CCCl)cc1 | 65 | 36
4 | CS(=O)(=O)c1ccc(N(CCCl)CCCl)cc1 | 100 | –
